# Potato spindle tuber viroid, loop 6: variant abundance in plants

Data from the supplement of Wu et al. 2024, doi:10.1371/journal.ppat.1012142.

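Three N. benthamiana plants were inoculated with the whole mutant pool. Progeny were sequenced from the inoculated region (day 5), the margin of the inoculated leaf (day 10) and systemic leaves (day 12).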

PSTVd intermediate strain, loop 6: wild type UGACCGCGAG, pool pattern UNNNCGNNNG; upper and lower strand joined, each 5' to 3', the first 5 letters being the upper strand, closing pairs included.

Numbers give reads per thousand; 0 = not seen among the reads, higher = more abundant. Each value is the mean of three plants. "Pool" is the share in the plasmid pool used as inoculum, on the same scale. The inoculated region was read from the minus strand, the other sites from the plus strand. Samples held 36,220 to 57,551 reads, so the smallest values rest on one or two reads. The authors trace changes outside the varied positions to PCR and sequencing errors or to mutation in the plant; presence does not show that a variant is infectious alone. Wild type was 20.7 per thousand in the pool and the most common sequence in every sample (inoculated region 195, 198, 203; leaf margin 629, 591, 734; systemic leaves 942, 870, 868).

With UGAUCGGCAG (pool 0.261) the assay gave inoculated region 0.628; leaf margin 0.0760; systemic leaves 0.
With GGACCGGGAG (pool 0.0261) the assay gave inoculated region 0.0120; leaf margin 0; systemic leaves 0.
With UGGCCGGAAG (pool 0.157) the assay gave inoculated region 0.120; leaf margin 0.00773; systemic leaves 0.0205.
With UUGUCGUGCG (pool 0.105) the assay gave inoculated region 0.0534; leaf margin 0.00773; systemic leaves 0.
With UUUACGGACG (pool 0.248) the assay gave inoculated region 0.589; leaf margin 0.0676; systemic leaves 0.0339.
With UAGCCGAAUG (pool 0.301) the assay gave inoculated region 0.0898; leaf margin 0.0276; systemic leaves 0.
With UAUCCGAAGG (pool 0.131) the assay gave inoculated region 0.131; leaf margin 0; systemic leaves 0.
With UUGACGUACG (pool 0.301) the assay gave inoculated region 0.0708; leaf margin 0; systemic leaves 0.
With UUUGCGGUGG (pool 0.248) the assay gave inoculated region 0.120; leaf margin 0; systemic leaves 0.
With UCGACGUACG (pool 0.170) the assay gave inoculated region 0.0712; leaf margin 0.00920; systemic leaves 0.
With UCUUCGCGUG (pool 0.144) the assay gave inoculated region 0.130; leaf margin 0.269; systemic leaves 0.
With UUUCCGCGUG (pool 0.170) the assay gave inoculated region 0.150; leaf margin 0.0486; systemic leaves 0.
With UUGCCGGUUG (pool 0.209) the assay gave inoculated region 0.118; leaf margin 0.00773; systemic leaves 0.
With UCCACGUGAG (pool 0.222) the assay gave inoculated region 0.130; leaf margin 0.00773; systemic leaves 0.
With UGGCCGGUCG (pool 0.327) the assay gave inoculated region 0.168; leaf margin 0.0261; systemic leaves 0.
With UCGUCGUUGG (pool 0.170) the assay gave inoculated region 0.154; leaf margin 0; systemic leaves 0.
With UCGUCGCGCG (pool 0.157) the assay gave inoculated region 0.0467; leaf margin 0; systemic leaves 0.
With UCGCCGGUAG (pool 0.183) the assay gave inoculated region 0.124; leaf margin 0; systemic leaves 0.
With UGACCGUUCG (pool 0.222) the assay gave inoculated region 0.244; leaf margin 0.551; systemic leaves 0.214.
With UUUUCGCACG (pool 0.144) the assay gave inoculated region 0.0719; leaf margin 0.0169; systemic leaves 0.
With UGACAGAGCG (pool 0.0131) the assay gave inoculated region 0; leaf margin 0; systemic leaves 0.
With UCAUCGCAGG (pool 0.170) the assay gave inoculated region 0.101; leaf margin 0.00773; systemic leaves 0.
With UCCUCGACGG (pool 0.196) the assay gave inoculated region 0.0888; leaf margin 0; systemic leaves 0.
With UUUGCGACAG (pool 0.209) the assay gave inoculated region 0.0773; leaf margin 0; systemic leaves 0.
With UAGGCGAUUG (pool 0.379) the assay gave inoculated region 0.119; leaf margin 0.00773; systemic leaves 0.
With UUUCCGUUAG (pool 0.379) the assay gave inoculated region 0.118; leaf margin 0.00773; systemic leaves 0.00684.
With UUCUCGUGUG (pool 0.418) the assay gave inoculated region 0.101; leaf margin 0; systemic leaves 0.
With UCAGCGCGAG (pool 0.222) the assay gave inoculated region 0.125; leaf margin 0.0839; systemic leaves 0.0547.
With UUGACGUCAG (pool 0.288) the assay gave inoculated region 0.0842; leaf margin 0; systemic leaves 0.
With UUUUCGCGCG (pool 0.157) the assay gave inoculated region 0.0715; leaf margin 0; systemic leaves 0.
With UCCUCGUUAG (pool 0.405) the assay gave inoculated region 0.0898; leaf margin 0.00920; systemic leaves 0.
With UGUACGUAUG (pool 0.314) the assay gave inoculated region 0.101; leaf margin 0.0920; systemic leaves 0.
With UCAUCGCUGG (pool 0.196) the assay gave inoculated region 0.107; leaf margin 0.00773; systemic leaves 0.
With UAACCGCACG (pool 0.183) the assay gave inoculated region 0.684; leaf margin 0.100; systemic leaves 0.0473.
With UUCGCCUUGG (pool 0.0131) the assay gave inoculated region 0; leaf margin 0; systemic leaves 0.
With UACACGAGUG (pool 0.170) the assay gave inoculated region 0.0591; leaf margin 0.00773; systemic leaves 0.
With UUACCGCGGG (pool 0.131) the assay gave inoculated region 0.133; leaf margin 0.0247; systemic leaves 0.0337.
With UUACCGCCGG (pool 0.209) the assay gave inoculated region 0.114; leaf margin 0.00773; systemic leaves 0.